A mixed list of measured activities; the numbers were collected in NIAID ChemDB.

Common to all: whole-cell or culture tests; organism: Candida albicans; read-out: inhibition

Neighbouring rows are from separate reports. Inhibition is in % at the dose shown (toxicity tests: loss of growth or viability). For "inactive" no cut-off is given. Blank or dashed fields: not listed here.

compound | method | strain or isolate | mutations | tested at | conditions | value
Cc1c(C(=O)O)c(-c2ccc(Cl)cc2)cn1-c1ccc(Cl)cc1 |  | 40 strains |  | 24.9 µg/mL |  | 2.5%
COc1ccc(Sc2c(S(=O)c3ccccc3)c(O)c3ccccc3c2O)cc1 |  |  |  | 0.2 µg/mL |  | 46.5%
Cc1ccc(-c2cn(-c3ccc(Br)cc3)c(C)c2C(=O)O)cc1 |  | 40 strains |  | 158.33 µg/mL |  | 85.6%
O=C1C(Nc2ccc(Cl)cc2)=C(S(=O)c2ccccc2)C(=O)c2ccccc21 |  |  |  | 0.2 µg/mL |  | 48%
Cc1c(C(=O)O)c(-c2ccc(Br)cc2)cn1-c1ccc(F)cc1 |  | 40 strains |  | 78.57 µg/mL |  | 2.5%
Clc1ccc(COC(Cn2ccnc2)c2ccc(Cl)cc2Cl)c(Cl)c1 |  | 439 isolates |  | 4 µg/mL | 24 h | 84%
CCC(C)n1ncn(-c2ccc(N3CCN(c4ccc(OC[C@H]5CO[C@](Cn6cncn6)(c6ccc(Cl)cc6Cl)O5)cc4)CC3)cc2)c1=O |  |  |  | 5 µg/mL |  | 90%
Cc1cc(C)nc(NS(=O)(=O)c2ccc(N=Cc3c[nH]c4ccccc34)cc2)n1 |  |  |  | 200 µg/mL |  | 60%
Cc1c(C(=O)N(CCO)CCO)cc(-c2ccc([N+](=O)[O-])cc2)n1-c1ccccc1Cl |  | 20 strains |  | 200 µg/mL |  | 0%
Nc1nc(/N=C/c2ccccn2)n[nH]1.Nc1nc(/N=C/c2ccccn2)n[nH]1.[O]=[V+2] | agar diffusion / agar |  |  | 200 µg/mL |  | 66%
O=C(O)CCc1ccccc1 |  | MY1055 |  | 500 µg/mL |  | 15.3%
Nc1[nH]c(=O)ncc1F |  |  |  | 5 µg/mL |  | 80%
Cc1c(C(=O)O)c(-c2ccc(Br)cc2)cn1-c1ccc(Cl)cc1 |  | 40 strains |  | 17.32 µg/mL |  | 2.5%
Cc1ccc(-n2cc(C(C)(C)O)nn2)cc1C | broth dilution | URM 4820 |  | 2048 µg/mL |  | 0%
OC(Cn1cncn1)(Cn1cncn1)c1ccc(F)cc1F |  |  |  | 5 µg/mL |  | 86%
CS(=O)(=O)OC[C@H]1CO[C@](Cn2ccnc2)(c2ccc(-c3ccccc3)cc2)O1 |  | 44 strains |  | 256 µg/mL |  | 71.8%
NCCCC[C@H](NC(=O)[C@H](CCCN=C(N)N)NC(=O)[C@H](CCCN=C(N)N)NC(=O)[C@H](CCCCN)NC(=O)[C@H](CCCCN)NC(=O)[C@@H](N)CCCCN)C(=O)N[C@@H](CCCN=C(N)N)C(=O)O |  | ATCC 10231 |  | 100 µM |  | 12%
Cc1cc(C=Nc2ccc(N=Cc3cc(C)cc(/C=N/Nc4nc5ccccc5s4)c3O)cc2)c(O)c(/C=C/Nc2nc3ccccc3s2)c1 | turbidity |  |  | 50 µg/mL |  | 17.57%
CC(C)(O)c1cn(-c2cccc3ccccc23)nn1 | broth dilution | URM 4986 |  | 2048 µg/mL |  | 0%
CCCOc1ccc(SCC#CCN2CCOCC2)cc1 |  | CNCM 1180-79 |  | 78 µg/mL |  | 50%
CC(C)(O)c1cn(-c2ccc3ccccc3c2)nn1 | broth dilution | URM 3716 |  | 2048 µg/mL |  | 0%
COc1ccc(C(=O)Cn2cncn2)cc1 | broth dilution | Fluconazole-resistant |  | 100 µg/mL |  | 60%
Nc1nc(/N=C/c2ccc[n-]2)n[nH]1.Nc1nc(/N=C/c2ccc[n-]2)n[nH]1.[O]=[V+2] | agar diffusion / agar |  |  | 200 µg/mL |  | 77%
Cc1ccc(Sc2c(S(=O)c3ccccc3)c(O)c3ccccc3c2O)cc1 |  |  |  | 0.2 µg/mL |  | 44%
CCOc1ccc(SCC#CCN2CCN(C)CC2)cc1 |  | CNCM 1180-79 |  | 78 µg/mL |  | 50%
CC1=CC(C)=N/C1=C\c1[nH]c(C)cc1C |  |  |  | 10 µg/mL |  | inactive
C/C(=N\c1n[nH]c(N)n1)c1ccccn1 | agar diffusion / agar |  |  | 200 µg/mL |  | 42%
O=S(c1ccccc1)c1c(Sc2ccc(Br)cc2)c(O)c2ccccc2c1O |  |  |  | 0.2 µg/mL |  | 39.6%
Cc1ccc(-c2cn(-c3ccc(F)cc3)c(C)c2C(=O)O)cc1 |  | 40 strains |  | 73.33 µg/mL |  | 80%
CCCCOc1ccc(SCC#CCN2CCOCC2)cc1 |  | CNCM 1180-79 |  | 78 µg/mL |  | 75%
CC(=O)N1CCN(c2ccc(OC[C@H]3CO[C@](Cn4ccnc4)(c4ccc(-c5ccccc5)cc4)O3)cc2)CC1 |  | 44 strains |  | 256 µg/mL |  | 38.7%
NC(N)=NS(=O)(=O)c1ccc(N=Cc2c[nH]c3ccccc23)cc1 |  |  |  | 200 µg/mL |  | 35%
Nc1nc(/N=C/c2c(O)ccc3ccccc23)n[nH]1 | agar diffusion / agar |  |  | 200 µg/mL |  | 48%
CC1(C)O[C@H]2[C@H](O)[C@@H](N=[N+]=[N-])C=C(c3ccc(C=O)cc3)[C@H]2O1 | broth dilution / turbidity | ATCC 10231 |  | 31.25 µg/mL |  | 67.18%
Cc1c(C(=O)N2CCN(C)CC2)cc(-c2ccc([N+](=O)[O-])cc2)n1C |  | 20 strains |  | 200 µg/mL |  | 0%
Nc1nc(/N=C/c2ccc[nH]2)n[nH]1 | agar diffusion / agar |  |  | 200 µg/mL |  | 63%
OC[C@H]1CO[C@](Cn2ccnc2)(c2ccc(-c3ccccc3)cc2)O1 |  | 44 strains |  | 256 µg/mL |  | 76.3%
O=C(Cn1cncn1)c1ccc([N+](=O)[O-])cc1 | broth dilution | Fluconazole-resistant |  | 100 µg/mL |  | 23%
C[C@H]1[C@H](O)[C@@H](C)/C=C/C=C/C=C/C=C/C=C/C=C/C=C/[C@H](O[C@@H]2O[C@H](C)[C@@H](O)[C@H](N)[C@@H]2O)C[C@@H]2O[C@](O)(C[C@@H](O)C[C@@H](O)CC[C@H](O)[C@@H](O)C[C@@H](O)CC(=O)O[C@H]1C)C[C@H](O)[C@H]2C(=O)O | broth dilution | ATCC 90028 | cph1/efg1 | 1 µg/mL |  | 100%
Nc1[nH]c(=O)ncc1F |  | 5208 strains |  | 0.25 µg/mL |  | 69%
Cc1c(C(=O)N2CCN(C)CC2)cc(-c2ccc([N+](=O)[O-])cc2)n1Cc1ccccc1 |  | 20 strains |  | 200 µg/mL |  | 0%
O=S(=O)(Nc1nccs1)c1ccc(N=Cc2c[nH]c3ccccc23)cc1 |  |  |  | 200 µg/mL |  | 40%
Cc1ccc(SC2=C(Sc3ccc(C)cc3)C(=O)c3ccccc3C2=O)cc1 |  |  |  | 0.2 µg/mL |  | 38.2%
CS(=O)(=O)c1ccc(NC(=O)Oc2c(Cl)c(Cl)c(Cl)c(Cl)c2Cl)cc1 |  |  |  | 25 µg/mL |  | inactive
CCCCOc1ccc(SCC#CCN2CCN(C)CC2)cc1 |  | CNCM 1180-79 |  | 78 µg/mL |  | 75%
CC(C)(O)c1cn(-c2ccc([N+](=O)[O-])cc2)nn1 | broth dilution | URM 4820 |  | 2048 µg/mL |  | 0%
CCCCOc1ccc(SCC#CI)cc1 |  | CNCM 1180-79 |  | 78 µg/mL |  | 100%
COc1ccc(C(O)Cn2ccnc2)cc1 | broth dilution | Fluconazole-resistant |  | 100 µg/mL |  | 74%
Cc1ccc(-n2cc(-c3ccc(Br)cc3)c(C(=O)O)c2C)cc1 |  | 40 strains |  | 47.92 µg/mL |  | 5%

For reference, 6 entries again:

{"compound": "NCCCC[C@H](NC(=O)[C@H](CCCN=C(N)N)NC(=O)[C@H](CCCN=C(N)N)NC(=O)[C@H](CCCCN)NC(=O)[C@H](CCCCN)NC(=O)[C@@H](N)CCCCN)C(=O)N[C@@H](CCCN=C(N)N)C(=O)O", "strain or isolate": "ATCC 10231", "tested at": "100 µM", "value": "12%"}
{"compound": "OC[C@H]1CO[C@](Cn2ccnc2)(c2ccc(-c3ccccc3)cc2)O1", "strain or isolate": "44 strains", "tested at": "256 µg/mL", "value": "76.3%"}
{"compound": "CCCCOc1ccc(SCC#CCN2CCN(C)CC2)cc1", "strain or isolate": "CNCM 1180-79", "tested at": "78 µg/mL", "value": "75%"}
{"compound": "Cc1cc(C)nc(NS(=O)(=O)c2ccc(N=Cc3c[nH]c4ccccc34)cc2)n1", "tested at": "200 µg/mL", "value": "60%"}
{"compound": "CCCCOc1ccc(SCC#CI)cc1", "strain or isolate": "CNCM 1180-79", "tested at": "78 µg/mL", "value": "100%"}
{"compound": "CC(C)(O)c1cn(-c2cccc3ccccc23)nn1", "method": "broth dilution", "strain or isolate": "URM 4986", "tested at": "2048 µg/mL", "value": "0%"}